Measured values from several laboratories, pooled; numbers as filed in NIAID ChemDB.

All rows: tests in culture; species: Herpes simplex virus 2; endpoint: EC50

An empty or dashed field is not shown. Neighbouring rows are from separate reports. ECn: concentration that inhibits the pathogen or its effect by n%.

O=c1[nH]c(=O)n([C@@H]2O[C@H](CO)[C@@H](O)[C@@H]2O)cc1/C=C/I ; cells: HELF ; method: plaque count ; strain or isolate: HG-52 ; result: 18 µg/mL
CN(C)c1ncnc2c1ncn2COCCO ; cells: PRK ; method: cytopathic effect ; result: >400 µg/mL
Nc1nc(=O)n([C@@H]2S[C@H](CO)[C@@H](O)[C@@H]2F)cc1I ; method: cytopathic effect ; strain or isolate: MS ; result: 0.32 µg/mL
COc1ccc2nc3n[nH]c(C)c3c(Cl)c2c1 ; cells: VERO ; method: plaque count ; result: 1.8 µg/mL
O=c1[nH]c(=O)n([C@H]2C[C@H](O)[C@@H](COP(=O)(O)O)O2)cc1/C=C/c1ccccc1 ; cells: PRK ; method: cytopathic effect ; strain or isolate: 196 ; result: 70 µg/mL
O=c1[nH]c(=O)n([C@H]2C[C@H](O)[C@@H](CO)O2)cc1/C=C/Br ; cells: HELF ; method: plaque count ; strain or isolate: MS ; result: 10.8 µg/mL
CCCCc1cn([C@@H]2O[C@H](COP(=O)(O)O)[C@@H](O)[C@H]2O)c(=O)nc1N ; strain or isolate: LYONS ; result: >400 µg/mL
O=C(NCc1ccc(Cl)cc1)c1cn2c3c(cc(CN4CCOCC4)cc3c1=O)OC(c1cccnc1)C2 ; cells: HFF ; method: plaque count ; strain or isolate: Heeter (wild type) ; result: 9.8 µM
O=c1[nH]c(=O)n([C@@H]2O[C@H](CO)[C@@H](O)[C@@H]2F)cc1I ; cells: VERO ; method: plaque count ; strain or isolate: G-FMAU-C1 ; result: 13 µM
Nc1ccn(C[C@H]2COP(=O)(O)CO2)c(=O)n1 ; cells: HFF ; method: plaque count ; strain or isolate: MS ; result: 17.22 µM
Nc1nc2c(ncn2CC[C@@H](O)CO)c(=O)[nH]1 ; cells: VERO ; method: plaque count ; strain or isolate: B4327 ; result: 11 µM
CCCCCCCCCCCCCCCCOP1(=O)CO[C@@H](Cn2ccc(N)nc2=O)CO1 ; cells: HFF ; method: plaque count ; strain or isolate: MS ; result: >1 µM
Nc1nc2c(ncn2COCCO)c(=O)[nH]1 ; cells: HEP-2 ; method: cytopathic effect ; strain or isolate: MS ; result: 0.94 µg/mL
Cc1cn([C@@H]2O[C@H](CO)[C@@H](O)[C@@H]2F)c(=O)[nH]c1=O ; cells: VERO ; method: plaque count ; strain or isolate: G-FIAC-C1 ; result: 11 µM
CCc1cn([C@@H]2OC3COP(=O)(O)OC3[C@H]2O)c(=O)nc1N ; strain or isolate: LYONS ; result: >400 µg/mL
OC[C@H]1O[C@@H](c2cc(C#CI)c(F)cc2F)C[C@@H]1O ; cells: E6SM ; method: cytopathic effect ; strain or isolate: G ; result: >400 µg/mL
Cn1cc(C(=O)NCc2ccc(Cl)cc2)c(=O)c2cc(CN3CCOCC3)ccc21 ; cells: HFF ; method: plaque count ; strain or isolate: 11361 (ACV-resistant) ; result: 3.7 µM
O=c1ccn([C@@H]2O[C@H](CO)[C@@H](O)[C@@H]2F)c(=O)[nH]1 ; cells: VERO ; method: plaque count ; strain or isolate: G ; result: 0.02 µM
Nc1nc2c(ncn2C[C@]2(CO)C[C@H]2CO)c(=O)[nH]1 ; cells: MRC-5 ; method: plaque count ; strain or isolate: 186 ; result: 0.12 µg/mL
O=c1[nH]c(=O)n([C@H]2C[C@H](O)[C@@H](CO)O2)cc1/C=C/Br ; cells: VERO ; method: plaque count ; strain or isolate: MS-M1 ; result: 5.9 µM
CCCCCCCC/C=C\CCCCCCCCOCCOP(=O)(O)CO[C@H](CO)Cn1ccc(N)nc1=O ; cells: HFF ; method: plaque count ; strain or isolate: G ; result: 0.06 µM
CCc1cn([C@@H]2O[C@H](COP(=O)(O)O)[C@@H](O)[C@H]2O)c(=O)nc1N ; strain or isolate: 196 ; result: >400 µg/mL
CCOC(=O)c1c([N+](=O)[O-])c(-c2ccccc2)n(COCCOC(C)=O)c1C ; cells: VERO ; method: plaque count ; result: >169 µM
Nc1nc2c(ncn2C/C=C\CO)c(=O)[nH]1 ; cells: VERO ; method: plaque count ; strain or isolate: 91075 (acyclovir-resistant) ; result: ≥250 µM
CCCCCc1cn([C@@H]2O[C@H](COP(=O)(O)O)[C@@H](O)[C@H]2O)c(=O)nc1N ; strain or isolate: 196 ; result: >400 µg/mL
OC[C@H]1O[C@@H](c2cc(/C=C/Br)c(F)cc2F)C[C@@H]1O ; cells: E6SM ; method: cytopathic effect ; strain or isolate: LYONS ; result: >400 µg/mL
O=c1[nH]c(=O)n([C@@H]2O[C@H](CO)[C@@H](O)[C@@H]2O)cc1/C=C/Cl ; cells: HELF ; method: plaque count ; strain or isolate: UW-268 ; result: 8.4 µg/mL
CCc1cn([C@H]2C[C@H](O)[C@@H](CO)O2)c(=O)[nH]c1=O ; cells: PRK ; method: cytopathic effect ; strain or isolate: LYONS ; result: 0.2 µg/mL
CCCCCCc1cn([C@@H]2O[C@H](COP(=O)(O)O)[C@@H](O)[C@H]2O)c(=O)nc1N ; strain or isolate: LYONS ; result: >400 µg/mL
O=c1[nH]c(=O)n(C2CC(O)C(CO)O2)cc1CCCCl ; cells: PRK ; method: cytopathic effect ; strain or isolate: LYONS ; result: 0.23 µg/mL
O=c1[nH]cnc2c1ncn2COCCO ; cells: PRK ; method: cytopathic effect ; result: >400 µg/mL
Nc1nc2c(ncn2COCCO)c(=O)[nH]1 ; cells: HELF ; method: plaque count ; strain or isolate: UW-268 ; result: 0.051 µg/mL
Nc1nc(F)nc2c1ncn2[C@@H]1S[C@H](CO)[C@@H](O)[C@@H]1F ; method: cytopathic effect ; strain or isolate: MS ; result: 3 µg/mL
Nc1nc2c(ncn2CCCCO)c(=O)[nH]1 ; cells: VERO ; method: plaque count ; strain or isolate: B4327 ; result: 13 µM
Nc1ncnc2c1ncn2[C@@H]1S[C@H](CO)[C@@H](O)[C@@H]1F ; method: cytopathic effect ; strain or isolate: MS ; result: 9 µg/mL
Nc1nc2c(ncn2COCCO)c(=O)[nH]1 ; cells: PRK ; method: cytopathic effect ; strain or isolate: LYONS ; result: 0.06 µg/mL
O=c1[nH]c(=O)n([C@H]2S[C@H](CO)[C@@H](O)[C@@H]2F)cc1F ; method: cytopathic effect ; strain or isolate: MS ; result: >27 µg/mL
CC(=O)OCCOCn1c(-c2ccccc2)c(C#N)c([N+](=O)[O-])c1-c1ccccc1 ; cells: VERO ; method: plaque count ; result: >300 µM
Nc1nc(=O)c(/C=C/Br)cn1[C@H]1C[C@H](O)[C@@H](CO)O1 ; cells: PRK ; method: cytopathic effect ; strain or isolate: 196 ; result: 300 µg/mL
CC(=O)OCCOCn1c(-c2ccccc2)c(-c2ccccc2)c([N+](=O)[O-])c1-c1ccccc1 ; cells: VERO ; method: plaque count ; result: >300 µM
CCc1cc([C@H]2C[C@H](O)[C@@H](CO)O2)c(F)cc1F ; cells: E6SM ; method: cytopathic effect ; strain or isolate: 196 ; result: >400 µg/mL
O=c1[nH]c(=O)n([C@H]2C[C@H](O)[C@@H](CO)O2)cc1I ; cells: PRK ; method: cytopathic effect ; strain or isolate: G ; result: 0.2 µg/mL
Cc1cn([C@@H]2O[C@H](CO)[C@H]2CO)c(=O)[nH]c1=O ; cells: HFF ; method: plaque count ; strain or isolate: SR ; result: 3.6 µg/mL
Nc1nc2c(ncn2COC(CO)CO)c(=O)[nH]1 ; cells: HEL ; method: cytopathic effect ; strain or isolate: HS-44 (TK-) ; result: 57 µM
Cn1cc(C(=O)NCc2ccc(Cl)cc2)c(=O)c2cc(/C=C\CO)cc(F)c21 ; cells: VERO ; method: plaque count ; result: 2 µM
Nc1ncnc2c1ncn2[C@@H]1O[C@H](COP(=O)(O)O)[C@@H](O)[C@@H]1O ; cells: MEF ; method: plaque count ; strain or isolate: MS ; result: 31 µM
CCCCCCCCCCCCCCCCCCOC[C@H](COP(=O)(O)CO[C@H](CO)Cn1ccc(N)nc1=O)OCc1ccccc1 ; cells: HFF ; method: plaque count ; strain or isolate: MS ; result: 0.01 µM
CCc1cn([C@H]2C[C@H](O)[C@@H](CO)O2)c(=O)[nH]c1=O ; cells: PRK ; method: cytopathic effect ; strain or isolate: G ; result: 0.7 µg/mL
CCCCCCCCCCCCCCCCOP(=O)(O)CO[C@H](CO)Cn1ccc(N)nc1=O ; cells: HFF ; method: plaque count ; strain or isolate: SR ; result: 0.5 µM
Nc1nc2c(ncn2COCCO)c(=O)[nH]1 ; cells: HFF ; method: cytopathic effect ; strain or isolate: V74269 (acyclovir-susceptible) ; result: 1 µg/mL
O=c1[nH]c(=O)n([C@H]2C[C@H](O)[C@@H](CO)O2)cc1/C=C/Br ; cells: HEL ; method: cytopathic effect ; strain or isolate: HS-47 (TK+) ; result: >150 µM
CCCCCCCCCCCCOCCCOP1(=O)CO[C@@H](Cn2ccc(N)nc2=O)CO1 ; cells: HFF ; method: plaque count ; strain or isolate: SR ; result: >1 µM
Nc1ccn(C[C@@H](CO)OCP(=O)(O)O)c(=O)n1 ; cells: HFF ; method: plaque count ; strain or isolate: MS ; result: 1.2 µg/mL
Nc1nc2c(ncn2COCCOP(=O)(O)O[C@@H]2[C@H](O)[C@@H](COP(=O)(O)O[C@@H]3[C@H](O)[C@@H](CO)O[C@H]3n3cnc4c(N)ncnc43)O[C@H]2n2cnc3c(N)ncnc32)c(=O)[nH]1 ; cells: PRK ; method: cytopathic effect ; strain or isolate: 196 ; result: 0.7 µg/mL
CCCCCCCC/C=C/CCCCCCCC(=O)OCC(CO)OCn1cnc2c(=O)[nH]c(N)nc21 ; cells: HEL ; method: cytopathic effect ; strain or isolate: HS-47 (TK+) ; result: 0.0006 µM
Nc1ccn(COCCO)c(=O)n1 ; cells: PRK ; method: cytopathic effect ; result: 100 µg/mL
O=C(O)CP(=O)(O)O ; cells: MEF ; method: plaque count ; strain or isolate: E-196 ; result: 13.1 µg/mL
Nc1nc(=O)n([C@@H]2O[C@H](CO)[C@@H](O)[C@@H]2F)cc1I ; cells: VERO ; method: plaque count ; strain or isolate: G-FAU-C2 ; result: 3.6 µM
O=c1[nH]c(=O)n([C@@H]2S[C@H](CO)[C@@H](O)[C@@H]2F)cc1/C=C/Br ; method: cytopathic effect ; strain or isolate: MS ; result: 9 µg/mL
Cc1cn([C@@H]2O[C@H](CO)[C@@H](O)[C@@H]2O)c(=O)[nH]c1=O ; cells: VERO ; method: plaque count ; strain or isolate: MS ; result: 6.6 µM
O=c1[nH]c(=O)n(COCCO)cc1F ; cells: PRK ; method: cytopathic effect ; result: >400 µg/mL
Nc1ncnc2c1ncn2[C@@H]1C[C@H](CO)[C@@H](O)[C@@H]1O ; cells: VERO ; method: plaque count ; strain or isolate: G-FMAU-C1 ; result: 73 µM
O=c1[nH]c(=O)n([C@H]2C[C@H](O)[C@@H](CO)O2)cc1F ; cells: PRK ; method: cytopathic effect ; strain or isolate: 196 ; result: >40 µg/mL
Nc1nc2c(ncn2COCCO)c(=O)[nH]1 ; cells: VERO ; method: XTT ; strain or isolate: 196 ; result: 0.8 µM
Nc1nc2c(ncn2[C@@H]2S[C@H](CO)[C@@H](O)[C@@H]2F)c(=O)[nH]1 ; method: cytopathic effect ; strain or isolate: MS ; result: 0.037 µg/mL
CCCCC(=O)OC[C@H]1O[C@@H](n2cnc3c(N)ncnc32)[C@@H](O)[C@@H]1O ; cells: MEF ; method: plaque count ; strain or isolate: X-79 ; result: 19 µM
Nc1nc2c(ncn2CC[C@H](O)CO)c(=O)[nH]1 ; cells: VERO ; method: plaque count ; strain or isolate: B4327 ; result: 53 µM
CCOC(=O)c1c([N+](=O)[O-])c(-c2ccccc2)n(COCCOC(C)=O)c1-c1ccccc1 ; cells: VERO ; method: plaque count ; result: >96 µM

A second listing of 10 rows from above:

structure	cells	method	strain or isolate	result
Nc1nc2c(ncn2COC(CO)CO)c(=O)[nH]1	HEL	cytopathic effect	HS-44 (TK-)	57 µM
OC[C@H]1O[C@@H](c2cc(/C=C/Br)c(F)cc2F)C[C@@H]1O	E6SM	cytopathic effect	LYONS	>400 µg/mL
O=c1[nH]c(=O)n([C@@H]2O[C@H](CO)[C@@H](O)[C@@H]2F)cc1I	VERO	plaque count	G-FMAU-C1	13 µM
CCCCCCCCCCCCOCCCOP1(=O)CO[C@@H](Cn2ccc(N)nc2=O)CO1	HFF	plaque count	SR	>1 µM
Nc1ccn(COCCO)c(=O)n1	PRK	cytopathic effect		100 µg/mL
OC[C@H]1O[C@@H](c2cc(C#CI)c(F)cc2F)C[C@@H]1O	E6SM	cytopathic effect	G	>400 µg/mL
Nc1nc2c(ncn2CC[C@H](O)CO)c(=O)[nH]1	VERO	plaque count	B4327	53 µM
O=c1[nH]c(=O)n([C@H]2C[C@H](O)[C@@H](CO)O2)cc1/C=C/Br	HELF	plaque count	MS	10.8 µg/mL
CCc1cc([C@H]2C[C@H](O)[C@@H](CO)O2)c(F)cc1F	E6SM	cytopathic effect	196	>400 µg/mL
O=c1[nH]c(=O)n([C@@H]2O[C@H](CO)[C@@H](O)[C@@H]2O)cc1/C=C/I	HELF	plaque count	HG-52	18 µg/mL